Pooled drug test results. Numbers come from NIAID ChemDB, via PubChem.

All rows: target-level tests; species: HIV-1; protein: Protease

Rows are shuffled and stem from different studies. ICn is the concentration giving n% inhibition. Blank or dashed fields: not listed here.

SMILES	measure	read by	value
CC(C)C(C)/C=C/[C@@H](C)[C@H]1CCC2C3=C[C@@H](O)[C@@]4(O)C[C@@H](O)CC[C@]4(C)C3CC[C@@]21C	IC50	-	180 µM
O=C1C=CC(=O)c2c(O)ccc(O)c21	IC50	fluorescence	>100 µM
Cc1ccc(Cl)cc1N1CCN(Cc2cn([C@@H](Cc3ccccc3)[C@H](Cc3ccccc3)NC(=O)OCC3CCCC3)nn2)CC1	IC50	fluorescence	<5 µM
CC(C)CNC(=O)[C@H](Cc1ccccc1)NCC(O)[C@@H]1Cc2ccc(cc2)OCCCC(=O)N[C@@H](CC(N)=O)C(=O)N1	Ki	-	0.8 µM
Cc1cn([C@H]2C[C@H](N=[N+]=[N-])[C@@H](COC(=O)CCCCC(=O)N[C@H]3CC[C@]4(C)[C@H]5CC=C6[C@@H]7CC(C)(C)CC[C@]7(C(=O)O)CC[C@@]6(C)[C@]5(C)CC[C@H]4C3(C)C)O2)c(=O)[nH]c1=O	IC50	HPLC	1.2 µM
Oc1ccc2c(O)c3ccccc3cc2c1O	IC50	fluorescence	62 µM
CC(C)[C@@H](C)/C=C/[C@@H](C)[C@H]1CCC2[C@@]34C=C[C@]5(C[C@@H](O)CC[C@]5(C)C3CC[C@@]21C)OO4	IC50	-	>1000 µM
O=C(N[C@@H](Cc1ccccc1)[C@H](Cc1ccccc1)n1cc(CN2CCN(c3ccc(F)cc3)CC2)nn1)OC1CCCC1	IC50	fluorescence	<5 µM
CC(C)[C@@H](C)/C=C/[C@@H](C)[C@H]1CC[C@H]2C3=CC=C4C[C@@H](O)CC[C@]4(C)[C@H]3CC[C@]12C	IC50	-	>1000 µM
CC1(C)CC[C@]2(C(=O)O)CC[C@]3(C)C(=CC[C@@H]4[C@@]5(C)CC[C@H](O)C(C)(C)[C@@H]5CC[C@]43C)[C@@H]2C1	IC50	HPLC	8 µM
O=C1N(Cc2cccc(O)c2)[C@H](CCc2ccccc2)[C@@H](CCc2ccccc2)N1Cc1cccc(O)c1	Ki	-	0.055 µM
Cc1cccc(C)c1OCC(=O)N[C@@H](Cc1ccccc1)[C@H](O)CN1CC[C@@H](Sc2ccncc2)C[C@H]1C(=O)NC(C)(C)C	IC50	-	≤0.0033 µM
CC(C)(C)NC(=O)[C@@H]1CCCCN1C(=O)[C@@H](O)[C@H](Cc1ccccc1)NC(=O)[C@H](CC(N)=O)NC(=O)OCc1ccccc1	IC50	-	0.45 µM
O[C@@H]1[C@@H](O)[C@@H](Cc2ccccc2)N(Cc2ccccc2)C(=S)N(Cc2ccccc2)[C@@H]1Cc1ccccc1	Ki	-	0.0031 µM
O=C(N[C@@H](Cc1ccccc1)[C@H](Cc1ccccc1)n1cc(CN2CCC(O)(c3ccccc3)CC2)nn1)OC1CCCC1	IC50	fluorescence	>5 µM
CC(C)[C@H](NC(=O)[C@H](CCCN=C(N)N)NC(=O)N[C@@H](Cc1ccc(O)cc1)C(=O)O)C(=O)N[C@@H](C=O)Cc1ccccc1	IC50	-	58 µM
O=C1N(Cc2ccccc2)[C@H](Cc2ccccc2)[C@H](O)CN(Cc2ccccc2)N1Cc1ccccc1	Ki	-	0.0087 µM
COC(=O)[C@]12CCC(C)(C)CC1C1=CCC3[C@@]4(C)CC[C@H](NC(=O)CCCCC(=O)N[C@H]5CC[C@@]6(C)C(CC[C@]7(C)C6CC=C6C8CC(C)(C)CC[C@]8(C(=O)OC)CC[C@]67C)C5(C)C)C(C)(C)C4CC[C@@]3(C)[C@]1(C)CC2	IC50	HPLC	>20 µM
O=C(O)CN(CC(=O)O)Cc1cc2c(c(O)c1O)C(=O)c1ccccc1C2=O	IC50	fluorescence	190 µM
O=C1[C@@H](Cc2ccccc2)C[C@@H](O)[C@@H](Cc2ccccc2)N1Cc1ccccc1	Ki	-	9.4 µM
Cc1cccc(C)c1OCC(=O)N[C@H](CCN1CC[C@@H](Sc2ncccn2)C[C@H]1C(=O)NC(C)(C)C)Cc1ccccc1	IC50	-	≤0.0057 µM
CC(C)(C)NC(=O)[C@H]1N(C(=O)[C@@H](O)[C@H](Cc2ccccc2)NC(=O)[C@H](CC(N)=O)NC(=O)OCc2ccccc2)CSC1(C)C	IC50	HPLC	0.031 µM
COC(=O)[C@]12CCC(C)(C)C[C@H]1C1=CC[C@@H]3[C@@]4(C)CC[C@H](NC(=O)CCCCC(=O)OC[C@H]5O[C@@H](n6cc(C)c(=O)[nH]c6=O)C[C@@H]5N=[N+]=[N-])C(C)(C)[C@@H]4CC[C@@]3(C)[C@]1(C)CC2	IC50	HPLC	20 µM
CC(=O)OC1C(=O)C2=C(C(=O)CC3C(C)(C)[C@@H](O)CC[C@]23C)[C@]2(C)[C@H](O)C[C@H]([C@H](C)CC(=O)CC(C)C(=O)O)[C@@]12C	IC50	-	190 µM
COC(=O)[C@@H](NC(=O)N(Cc1ccccc1)CC(O)CN(Cc1ccccc1)C(=O)N[C@H](C(=O)OC)C(C)C)C(C)C	IC50	-	10 µM
CC(C)[C@H](NC(=O)c1ccc2ccccc2n1)C(=O)N[C@H](CCN1CC[C@@H](SCc2ccncc2)C[C@H]1C(=O)NC(C)(C)C)Cc1ccccc1	IC50	-	≤0.004 µM
CC(C)(C)NC(=O)[C@@H]1CCCN1C(=O)[C@@H](O)[C@H](Cc1ccccc1)NC(=O)[C@H](CC(N)=O)NC(=O)COC(c1ccc(Cl)cc1)c1ccc(Cl)cc1	IC50	-	0.028 µM
Cc1c(O)cccc1C(=O)N[C@@H](Cc1ccc(-c2ccc3ccccc3c2)cc1)[C@H](O)C(=O)N1C[C@@H](Cl)C[C@H]1C(=O)NC(C)(C)C	IC50	-	0.0001 µM
CN(C)[C@@H]1C(=O)C(C(N)=O)=C(O)[C@@]2(O)C(=O)C3=C(O)c4c(O)cccc4[C@@](C)(O)[C@H]3C[C@@H]12	IC50	fluorescence	100 µM
C[C@H](CC(=O)C[C@@H](C)[C@H]1CC(=O)[C@@]2(C)C3=C(C(=O)C[C@]12C)[C@@]1(C)CCC(=O)C(C)(C)[C@@H]1C[C@@H]3O)C(=O)O	IC50	-	180 µM
CC(=O)O[C@H]1CC[C@]2(C)[C@H]3CC=C4[C@@H]5[C@@H](C)[C@H](C)CC[C@]5(C(=O)O)CC[C@@]4(C)[C@]3(C)CC[C@H]2C1(C)C	IC50	HPLC	13 µM
CC[C@H](C)C(NC(=O)C1CCCN1C[C@H](O)[C@@H]1CSSC[C@H](NC(C)=O)C(=O)NCC(=O)N[C@@H](CC(N)=O)C(=O)N1)C(=O)N[C@H](C(N)=O)C(C)C	Ki	-	8.1 µM
O=C1N(Cc2ccccc2)C[C@@H](O)[C@@H](Cc2ccccc2)N1Cc1ccccc1	Ki	-	2.5 µM
CC(C)(C)NC(=O)[C@H]1N(C(=O)[C@@H](O)[C@H](Cc2ccccc2)NC(=O)[C@H](CC(N)=O)NC(=O)COc2cccc(-c3ccccc3)c2)CSC1(C)C	IC50	-	0.0022 µM
CC(C)[C@H](NC(=O)COc1cccc2ccccc12)C(=O)N[C@@H](Cc1ccccc1)[C@H](O)C(=O)N1CSC[C@H]1C(=O)NC(C)(C)C	IC50	HPLC	0.0061 µM
CC(C)(C)NC(=O)C1N(C(=O)[C@@H](O)[C@H](Cc2ccccc2)NC(=O)[C@H](CS(C)(=O)=O)NC(=O)COc2cccc3ccccc23)CSC1(C)C	IC50	-	0.0026 µM
N=C1N(Cc2ccccc2)[C@H](Cc2ccccc2)[C@H](O)[C@@H](O)[C@@H](Cc2ccccc2)N1Cc1ccccc1	Ki	-	0.22 µM
Nc1c(O)c(S(=O)(=O)O)c(O)c2c1C(=O)c1ccccc1C2=O	IC50	fluorescence	70 µM
O=C(/C=C/c1ccc(O)c2c1[C@H](C(=O)O)[C@@H](c1ccc(O)c(O)c1)O2)O[C@H](Cc1ccc(O)c(O)c1)C(=O)O	IC50	fluorescence	25.39 µg/mL
CC(C)[C@H](NC(=O)[C@H](CCCN=C(N)N)NC(=O)N[C@@H](Cc1ccc(O)cc1)C(=O)O)C(=O)N[C@H](C=O)Cc1ccccc1	IC50	-	18 µM
CC(C)N(CC(=O)N(Cc1ccccc1)CC(O)CN(Cc1ccccc1)C(=O)CN(C(=O)CN(C(=O)OC(C)(C)C)C(C)C)C(C)C)C(=O)CN(C(=O)OC(C)(C)C)C(C)C	IC50	-	10 µM
COC(=O)CCCC(=O)O[C@H]1CC[C@@]2(C)C(CC[C@]3(C)C2CC=C2C4[C@@H](C)[C@H](C)CC[C@]4(C(=O)OC)CC[C@]23C)C1(C)C	IC50	HPLC	>50 µM
CC(C)(C)NC(=O)[C@H]1N(C(=O)[C@@H](O)[C@H](Cc2ccccc2)NC(=O)[C@H](CC(N)=O)NC(=O)COc2cccc(-c3ccccc3)c2)CSC1(C)C	IC50	HPLC	0.003 µM
O=S1(=O)[C@H](Cc2ccccc2)[C@H](OCc2ccccc2)[C@H](O)[C@@H](O)[C@@H](OCc2ccccc2)[C@H]1Cc1ccccc1	Ki	-	0.0006 µM
CC1(C)CC[C@]2(C)CC[C@]3(C)C(=CC[C@@H]4[C@@]5(C)CC[C@H](O)C(C)(C)[C@@H]5CC[C@]43C)[C@@H]2C1	IC50	HPLC	>100 µM
CC(C)N(CC(=O)N(Cc1ccccc1)CC(O)CN(Cc1ccccc1)C(=O)CN(C(=O)CN(C(=O)CCC(=O)O)C(C)C)C(C)C)C(=O)CN(C(=O)CCC(=O)O)C(C)C	IC50	-	10 µM
CC(C)(C)NC(=O)[C@@H]1CSCN1C(=O)[C@@H](O)[C@H](Cc1ccccc1)NC(=O)[C@H](CS(C)(=O)=O)NC(=O)COc1cccc2cnccc12	IC50	-	0.0072 µM
O=C1c2c(O)cccc2Cc2cccc(O)c21	IC50	fluorescence	42 µM
Cc1ccc(Cl)cc1N1CCN(Cc2cn([C@@H](Cc3ccccc3)[C@H](Cc3ccccc3)NC(=O)OCC3CCCCC3)nn2)CC1	IC50	fluorescence	<5 µM
O=C(/C=C/c1ccc(O)c2c1[C@H](C(=O)O)[C@H](c1ccc(O)c(O)c1)O2)O[C@H](Cc1ccc(O)c(O)c1)C(=O)O	IC50	fluorescence	25.2 µg/mL
COC(=O)[C@]12CCC(C)(C)C[C@H]1C1=CC[C@@H]3[C@@]4(C)CC[C@H](OC(=O)CCCCC(=O)OC[C@H]5O[C@@H](n6cc(C)c(=O)[nH]c6=O)C[C@@H]5N=[N+]=[N-])C(C)(C)[C@@H]4CC[C@@]3(C)[C@]1(C)CC2	IC50	HPLC	4 µM
COC(=O)[C@@H](NC(=O)[C@@H](NC(=O)CC[C@H](O)[C@H](Cc1ccccc1)NC(=O)[C@H](C)NC(=O)[C@H](C)NC(=O)OCc1ccccc1)C(C)C)C(C)C	Ki	-	0.048 µM
CSC[C@H](NC(=O)COc1cccc(-c2ccccc2)c1)C(=O)N[C@@H](Cc1ccccc1)[C@H](O)C(=O)N1CSC(C)(C)[C@H]1C(=O)NC(C)(C)C	IC50	-	0.0023 µM
CCOC(=O)N[C@@H](Cc1ccccc1)[C@H](Cc1ccccc1)n1cc(CN2CCN(c3cc(Cl)ccc3C)CC2)nn1	IC50	fluorescence	>5 µM
COC(=O)N[C@@H](Cc1c[nH]c2ccccc12)C(=O)NCCCC[C@@H](CO)N(CC(C)C)S(=O)(=O)c1ccc(N)cc1	Ki	fluorescence	0.0026 µM
CC[C@H](C)[C@H](NC(=O)[C@@H]1CCCN1C(=O)[C@@H](O)[C@H](Cc1ccccc1)NC(=O)[C@H](CC(N)=O)NC(=O)[C@H](Cc1ccccc1)NC(=O)[C@@H](N)CO)C(=O)N[C@H](C(N)=O)C(C)C	IC50	HPLC	0.94 µM
Cc1ccccc1N1CCN(Cc2cn([C@@H](Cc3ccccc3)[C@H](Cc3ccccc3)NC(=O)OC3CCCC3)nn2)CC1	IC50	fluorescence	<5 µM
COC(=O)[C@@H](Cc1ccc(O)c(O)c1)OC(=O)/C=C/c1ccc(O)c(O)c1/C=C/c1ccc(O)c(O)c1	IC50	fluorescence	10.73 µg/mL

Repeating the final 5 entries:

| SMILES | measure | read by | value |
|---|---|---|---|
| CCOC(=O)N[C@@H](Cc1ccccc1)[C@H](Cc1ccccc1)n1cc(CN2CCN(c3cc(Cl)ccc3C)CC2)nn1 | IC50 | fluorescence | >5 µM |
| COC(=O)N[C@@H](Cc1c[nH]c2ccccc12)C(=O)NCCCC[C@@H](CO)N(CC(C)C)S(=O)(=O)c1ccc(N)cc1 | Ki | fluorescence | 0.0026 µM |
| CC[C@H](C)[C@H](NC(=O)[C@@H]1CCCN1C(=O)[C@@H](O)[C@H](Cc1ccccc1)NC(=O)[C@H](CC(N)=O)NC(=O)[C@H](Cc1ccccc1)NC(=O)[C@@H](N)CO)C(=O)N[C@H](C(N)=O)C(C)C | IC50 | HPLC | 0.94 µM |
| Cc1ccccc1N1CCN(Cc2cn([C@@H](Cc3ccccc3)[C@H](Cc3ccccc3)NC(=O)OC3CCCC3)nn2)CC1 | IC50 | fluorescence | <5 µM |
| COC(=O)[C@@H](Cc1ccc(O)c(O)c1)OC(=O)/C=C/c1ccc(O)c(O)c1/C=C/c1ccc(O)c(O)c1 | IC50 | fluorescence | 10.73 µg/mL |